biological target: Af SglA (Aspergillus fumigatus, UniProt Q4WXA7); assay: HTS / resorufin 3β-D-glucopyranoside (ResGlp) enzymatic assay of SglA; type: biochemical; details: primary screen, ResGlp as the substrate, single compounds 0.25 to 4 μM
Experimental: Resorufin 3β-D-glucopyranoside (ResGlp; Sigma-Aldrich) enzyme kinetic assays were performed according to methods described by Pereira de Sa et al. ([17]). Reaction buffer contained 50 mM citric acid, 176 mM K2HPO4 (pH 6), 0.01% Tween 20, and 10 mM sodium taurocholate. The reaction was carried out in a black 96-well plate using 0.23 pmol of SglA with 100 μM ResGlp substrate. 10 μL/well of ResGlp was added to each well and the reaction was initiated by adding 20 μL enzyme (0.23 pmol). After incubation at 37°C for 30 min, the fluorescence was read at an excitation of 570 (±10) nm and an emission of 610 (±10) nm on a VersaMax microplate reader from Molecular Devices. A standard curve was prepared with serial dilutions of the free fluorophore, resorufin, in the same volume of assay buffer. All reactions were linear with respect to time and protein concentration, and the pH, temperature, and dimethyl sulfoxide (DMSO) optimal tolerance were verified.
A ChemBridge DIVERSet-CL library (ChemBridge, San Diego, CA) containing 50,000 compounds was screened to identify small molecules that inhibit Af SglA. The library was prepared in a 96-well plate format containing a cocktail of 10 compounds per well at 1 mM each in 100% DMSO. The cocktail plates were first diluted to 100 μM each (1:10 dilution in Dulbecco’s phosphate-buffered saline [DPBS]), resulting in 10% DMSO. In order to screen the compound cocktails at […] in 1% DMSO in a final reaction volume of 30 μL, an aliquot of 3 μL was added to 17 μL of buffer containing 0.23 pmol of enzyme and the reaction was started by adding 10 μL of 100 μM ResGlp. A negative control without enzyme and positive controls with and without DMSO were prepared. The plates were incubated at 37°C for 30 min. The Z′ factor was used for the assessment of the efficiency of the HTS assay for each plate. Values greater than 0.5 are considered indicators of excellent screening assay quality ([36]).

Amino acid sequences for entries named in this document (tags omitted). Residues count along the entry.
UniProt Q4WXA7, 1-759: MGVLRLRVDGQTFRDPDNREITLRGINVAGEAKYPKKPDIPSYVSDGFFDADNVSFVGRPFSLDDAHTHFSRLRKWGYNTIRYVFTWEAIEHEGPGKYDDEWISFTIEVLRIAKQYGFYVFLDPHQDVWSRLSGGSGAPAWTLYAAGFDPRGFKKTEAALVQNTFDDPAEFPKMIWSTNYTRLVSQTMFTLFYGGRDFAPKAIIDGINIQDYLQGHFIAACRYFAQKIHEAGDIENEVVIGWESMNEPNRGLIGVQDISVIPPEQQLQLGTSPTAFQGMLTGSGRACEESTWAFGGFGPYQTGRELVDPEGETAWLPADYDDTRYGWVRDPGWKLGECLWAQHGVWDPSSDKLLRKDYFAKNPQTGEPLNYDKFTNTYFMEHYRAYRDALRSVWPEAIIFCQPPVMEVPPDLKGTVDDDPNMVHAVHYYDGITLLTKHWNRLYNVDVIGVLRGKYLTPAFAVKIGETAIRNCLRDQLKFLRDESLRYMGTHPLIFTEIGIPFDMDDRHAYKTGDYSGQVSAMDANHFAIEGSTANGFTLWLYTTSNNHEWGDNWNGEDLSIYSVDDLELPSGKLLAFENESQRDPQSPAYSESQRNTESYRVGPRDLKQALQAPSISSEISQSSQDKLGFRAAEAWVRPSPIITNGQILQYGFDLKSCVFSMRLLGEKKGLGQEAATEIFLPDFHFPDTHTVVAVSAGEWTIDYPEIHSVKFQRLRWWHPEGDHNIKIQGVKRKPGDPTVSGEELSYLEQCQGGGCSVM

SMILES | IC50 [nM]
COc1cccc(-n2cc(CN(C)Cc3ccc(O)c(Cl)c3)cn2)c1 | 1000
CCc1[nH]c2ccc(CNc3nccc(N4CCCC(O)C4)n3)cc2c1C (centres unmarked) | 2000
c1cc2c(c(-c3cccc4[nH]ccc34)c1)CCNC2 | 2000
CC(C)Nc1ccnc(NCc2cccnc2Oc2ccc(F)cc2F)n1 | 500
CNc1cc(C)nc(NCc2ccc3[nH]c(C)c(C)c3c2)n1 | 500
Cc1[nH]c2ccc(CNc3nccc(N)n3)cc2c1C | 1000
CCNc1ccnc(NCc2cccnc2Oc2ccc(F)cc2F)n1 | 500
Cc1cc2c(N3CCCC(c4nccn4CC4CCC4)C3)ncnc2s1 (centres unmarked) | 2000
COc1cc(CNCc2cc(C)cc3c(C)c(C)[nH]c23)cc2c1OCO2 | 1000
CCc1[nH]c2ccc(CNCc3cc(OC)c4c(c3)OCO4)cc2c1C | 1000
Cc1cc(NCc2ccc3[nH]c(C)c(C)c3c2)nc(N)n1 | 1000

— publication PMC10128061, “Targeting Sterylglucosidase A to Treat Aspergillus fumigatus Infections” (mBio, 2023)
